The first data set deals with T1, His-OpaR (Vibrio parahaemolyticus RIMD2210633) (UniProt Q79YV4).
T1 sequence: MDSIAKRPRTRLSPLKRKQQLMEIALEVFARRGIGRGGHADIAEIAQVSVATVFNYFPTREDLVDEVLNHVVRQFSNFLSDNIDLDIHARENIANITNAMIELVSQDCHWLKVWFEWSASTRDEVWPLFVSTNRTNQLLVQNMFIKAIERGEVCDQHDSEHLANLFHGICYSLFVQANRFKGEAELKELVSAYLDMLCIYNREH
The data set is described as follows: EMSA. Conditions: pH and temperature not given (as in Zhang et al., 2012, 2017); EMSA on 6% polyacrylamide gel; footprinting with 0, 6, 9, 12 pmol His-OpaR; recombinant protein; residues 1-204; protein details: 6xHis; probe letters rebuilt from the primers and the genome. Background: Mobility shift assays separate free from complexed probe on a gel.
On to “CAGGGAAATGAAGTAATCATGCGCATTATTAAGATACAAATGCTAATTTAAAATAGTAGACAGTCATGTTCTTGCGCTTTCAAATGAATAAAACTTCGTTCAGTTTAACTTGCTGATCATCGATATTTATAAAACTTAGTCAACAGTAAATCGTGTTTATATGAAATAGTTATTGATGCATTCCTCAAATTATTAAAATTAGTTAATAATGCTGTCATTTCTTGAGCTAAGTCCATAAAAATAAAATGGTTTTATGAAGTAAATCGCTCTATTAATTGACTGAATACTCATTAATTGAAATGAATTGAGGATTCTTATAACAGCTATGCGCGATATCTTTTATAATGCACGCGTTACCTAATAGTATTTAATAAATGTCACCATATGCAGTACAACCCAGAAGACTCAATTAAAATTGCAATCGCAGATGTTGCTGTCGGCATGTTTGTTACCGCGATAGAGCATAACAAACGAGTCAATTTAGCCAATGCTGGTCGAGTTTCGAGCGCAGAAGGCATTAAAAAGCTTCGCGCAAGTGGCGTGAAATTCGTTTGGGTTGATCAATCACTTTCTGCTCAGCAGTGCGTATTCAAACCCGTCGAAGAACCTATCGATATCGAAGTAGGGGATAAAACGCTTTCCGTATCAAGCAAAGTACAACGTGCGTATCGCTCGCGAGAAGTCCAACACAAGCGTGCTA (double strand) [scrG EMSA fragment]”, for which the binding result is “binds”.

As to “TCAGGTACGCTTGCTTCACCACGCGCATGGTGGATGCTCAAAGCGATGGGACACGAGAACGTCAAAGTACTTAATGGTGGACTTCCAGCTTGGATAGAAGCGGGATTGCCCGTGGTAGATTCGCTAGCAAAACCTGAACAATTAGGAAATTTTGCGGGAAAATTAAATAAAAATGCATTTTTGGACGCAAATGCAGTATTAGAGTACTCAAACAATTGCAGTGCGCATATTGTTGATGCTCGCTCACGAGCGCGCTTTTTTGGTGAAGTGCCTGAGCCAAGAGAAGGATTGCGCAGTGGCCATATTCCAAACTCGTTGTGCCTGCCTTTTCAAGAACTGCTGGATAACGGTTACATCAAACCGAACTCAGAATTGAAACAAGCATTTAGCGAACTGTCGCTATATAATGACAATTCAATCATTTTCAGCTGTGGCTCAGGTGTGACTGCCTGTATTTTATTGTTGGCAGCTCATCAACTTGGCTTACGCAACTTATCTGTTTATGACGGTTCATGGACAGAATGGGGTGCAGACTGCTCACTGCCAATTACGCGTTAAGCTAGGGGTTATCAAAACAATATGGTCGGATTAAAGAAGAACATTTGGACTCTTTACATGATGCTGCTCACCGTCAGTATCGTGACATTTTCGCTATTCGGCTATTACCACTACCAAGCAACG (double strand) [VPA1176 EMSA fragment]”, the binding result is “binds”.

Regarding “AGTATCACGATGTGTCAGCCTGAGTTGGTCAAGTTGACAACTCAGCTGATGAAGCTGCGACTGAATATCGGATTCCAAGATTCCCATGAAACGACTACGGTTAAGTCCATGTACTACTGACAATTAACTGATAATAACAAAAAACTTTATAGCGTCATTAGTTATTACGCTTAACCGATGGTTAATTATCCATTTTTTAATATTTTCTTGATGTCGTCCTCATTCTTGTAAGAGGAGTGGATCTTGATCAGGCCTTGGTTGATGGCGTGTTGGCAAGCGGTTCTTATGTTACCGGTTGCAAAGCTCGCTGCTGGCGCGTTGTCAATGGCTTTCAAAAATACCCAATGACTTTGTTTATCTTTGAGGCTAACTTCGCGTGCAATGTGCGTCGCAAGTAGCAGTAAATCGAGCAGTTCTTCATCATTGATAGCGGTGTAAGCACGAGGCAAGAATGGGTAGTCGCTGATGCCCATACGAATGATGCGATTGACGTTATGTTGAGTCGCAAATTCGTCTACCCACGCTTGGAATTTTTCAAACATGACTTCGGCAGAGGCGTCGCGGTCTGCGTTAGGTTCGATGTAGAGTAAGTTTGCATCCGAGAAGTGGTACAAACGTGCAGGTTTTTCGATGCGCTCTGCTAGGTATTCTCC (double strand) [VP0699 EMSA fragment]”, the binding result is “binds”.

For “GTCTTGCTGATTCTGATGCAACAGCTCAATAACACCAACACACAAAGCAACAAAAGCGAAAAAGAACAGTGCAAAATAGCACTGCTTTCTGGGTGAATAACGCATTAGCTCCCCACTAGCTCGTCCGTTACTACGAGAATTATTCTTTTATTGTTAAAATTCTTATTATCTACAAGAATAACCAATAGCCTTTGCAAAGGTAATAATTATCTGAAATTTTTATGGTTTAAATAGGCAACGGGATGCAAGGACAAGGCGATTTATTTGAAAGTACGGATTGGCAAGAGGTACGCCAAGGTAAGCTCTTTTATCAGCCAAACTTTCTTTCTCAGCAAGAAGCGGATACGTACTTTTCAACGCTTATGAGTACCTTGCCTTGGCAACAAGAACGCATAACCATTTTCGGGAAATCGGTACTTCAACCTCGTTTGCAGACTTGGCATGGCGATGCGCCTTACACCTATTCGGGTTTAACCATGGCACCTCACCCTTGGACGTCTGAGCTGTCATCACTCAAGGCTCGCTGTGAAAGCCTTGCCAACACCCCGTTCAACTCTGTATTGGCGAATCTGTATCGCGACGGTCAGGACTCGATGGGATGGCACCAAGACAATGAACCAGAG (double strand) [VPA0198 EMSA fragment]”, the binding result is “binds”.

“GTCGGCTGCGATTAGTCTGAATAGAATCCTTGTCGCTCATTTTTTTCGATCCTTGTCGGAAATTAGCCATATTATTAATTTTTAAACGCGTAACTATCTGTTACTAAAACATTATTACCTATTCAAACCAGACTTTAATTTTTTACTCTGCCATTAAGTGACTTTAGTTCCACTTTTTTAGCTTATTTGATGACATAAGCAACAGTTTCGCCTCCAACCAATAAACAACTGAATACATATTAAAATATTCATTAAATTGACTATTTTTATGATAAACGCTTAATAATAGTTTTATCTATAAACAAACAGTGAGCTTTGTTATAAATTCATTAAAAATTTAACTTTGTATTAATTAGAAAATTCAGCGTCATATTTGTTCAACTGCGACTATTCTTTTTATAACCAAGTAATCTCAATATGTTAAGTTTCATAAAATGGCTTGATGTTTAAATGAACAGTTAATTTTTAGACCATATATAGCGAGATCTAAAGTAGTTCAAACAAATGTACGGTCTAACTCTTAGCTGCGAGAACAAACCACTTGGATATACGCTC (double strand) [scrA EMSA fragment]”: the binding result is recorded as “binds”.

On to “CTCACACAACACTTTCTGGTACGCGCCGCAGATGAGCTTGGAGTGGAAACCAAAACCTTGCACCCGTCGACAGTCGAAATTCTCAATCGACTCAATTGGCCGGGCAACGTACGTCAGCTAGAAAACATTTGTCGCTGGTTAACCGTGATGGCGAGTGGCAGTGAAGTATTACCGAACGATTTGCCTTCAGAGCTTTTGGAAGAGAAGAAGACCGTTTCGGATTCAACCAAAGGTAGCTGGCAAGAACAATTGGCGGACTGGGCACGTCAATCGCTCGCTGCGGGGGATAAAGAACTACTTTCTTTCGCATTACCAGAATTTGAGCGCATTTTATTAGAAGCTGCACTGGAGCACACTAAAGGTCACAAGCAAGATGCCGCTAAAGTATTAGGCTGGGGACGCAATACGCTAACCAGAAAGTTAAAAGAGTTGTACTGACCGTCACTTAAGCAGTGAGTTAACAATGAGAGTGCTTAGCGCTCGATATTAACAGAAATGTCAGTACAATTAAGGTGAACCATCCCTAATGTGACTAGGCAATGTCTACTGCAAAGACTCAAATTACACTACGTACTGCTGTACTCATCCCTTTTGTGATGATTTTCTTACTGGCTATCGGTGTGATTGTCTGAATTCGCGC (double strand) [VP0117 EMSA fragment]”, for which the binding result is on record as “binds”.

Regarding “CTGACTTACATCGTGGACCCGTTTGGAAAAAGCTCGCATGTACCCTACTACTGCCGTAACACTATTTTCACCACGATGAGTGGCGTCGTTATTTTTACTTTAGGCTTAGTAATTTACGTTTCTTTTTGATGCTTTTCTAGGCACAAAATGACTTTAGAATGGATTAATGCGAAAGCAATTAAAAAAGTGTGAGTAACGGCTGCAAACTATTGATTTCAATGTCAGGTAACGTACGTGTTCTTGAATGATTAATGACATTTTTATTCATATCATTAAACCAACATGCGGCAAAACCCGCTAACTTTGCACCATATACATCCGTCGTGAGGTGGTCACCAACATGCAAAATGTTTTCGGCAGGTAAATCGAGGAACTGCTGCGCTTTGACAAACAAATCGGCAGCAGGCTTGGCGAGACCGTCAGGGCCCGCTTTTAATACGCATTGGAAGTATGGCGTCAAACCGATTTTATCTAAGTCGACATTACCATTGGTGATCGCCACCAGAGGAATGCGTTCTCCCAACTCCGCCAATACATCGAGACTTTGCTGTGGCACGTCAAACTGACTGCGCCATTCCAACGCCAGTTGCACGCCCTCTTCCGCTGCGACTTGAGCTTGCGCTTCATCGTAGCCAACGGATAGAAA (double strand) [VP2979 EMSA fragment]”, the binding result was “binds”.

For the next data set, the target named is T1, His-OpaR (Vibrio parahaemolyticus RIMD2210633). The data set is described as follows: DNase I footprinting. Conditions: pH and temperature not given (as in Zhang et al., 2012, 2017); footprinting with 0, 6, 9, 12 pmol His-OpaR; recombinant protein; residues 1-204; protein details: 6xHis; label: labeled coding or noncoding strand; probe letters rebuilt from the primers and the genome.
Regarding “TAAATACTATTAGGTAACGCGTGCATTATAAAAGATATCGCGCATAGCTGTTATAAGAATCCTCAATTCATTTCAATTAATGAGTATTCAGTCAATTAATAGAGCGATTTACTTCATAAAACCATTTTATTTTTATGGACTTAGCTCAAGAAATGACAGCATTATTAACTAATTTTAATAATTTGAGGAATGCATCAATAACTATTTCATATAAACACGATTTACTGTTGACTAAGTTTTATAAATATCGATGATCAGCAAGTTAAACTGAACGAAGTTTTATTCATTTGAAAGCGCAAGAACATGACTGTCTACTATTTTAAATTAGCATTTGTATCTTAATAATGCGCATGATTACTTCATTTCCCTG (double strand) [scrG footprint probe]”, the binding result is given as “binds”.
